{
  "source": "paper doi:10.1101/2020.04.30.069369",
  "system": "Rgg2Sd (Streptococcus dysgalactiae)",
  "test": "X-ray crystallography",
  "note": "Construct, isoform or probe ends are uncertain for at least one entry.",
  "data": [
    {"sequence": "CCATTTTTCCCACTTTCACAACAAAAAATT / TTTTTTGTTGTGAAAGTGGGAAAAATGGAA [Rgg2 box (pSHP2DNA)]", "values": [
      {"measurement": "binding result", "result": "binds"}
    ]}
  ]
}
